Data taken from patent US20050215634A1 (priority 2003, published 2005).

Test system: human T cells
Assay type: cell-based
Details: T cells plus GML 15 μg/ml, no TSST-1

CCCCCCCCCCCC(=O)OCC(O)CO (stereo not shown) [GML, glycerol monolaurate]
Counts/min (incorporation of 3H-thymidine into DNA): 5,000 Counts/min
